Values from PubChem BioAssay AID624099 (ICCB-Longwood, 2012)
Assay: 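Knock-downs relieving repression by E2 of an HPV18 LCR luciferase reporter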 (primary screen). Cells: human C33A cervical carcinoma cells (HPV-negative) stably expressing BPV1 E2 and an HPV18 LCR luciferase reporter. Reagents: siRNA pool against human genes, 40 nM. Time to read-out: 72 h. Detection: 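Per-well luciferase luminescence, z-scored on each plate against the plate mean and SD with control wells left out, then averaged across three replicate plates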. Reading the numbers: mean z-score and z-score: higher = stronger reporter signal, weaker E2 silencing. Rule for the call: 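Hit if mean z-score reaches 2 and two or more of three replicate z-scores also reach 2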.
In all, the deposit lists about 21,000 reagents; below is an unselected part. Of all reagents, 497 (2.4%) got an active call. 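Higher z means weaker E2 silencing; only reporter increases were scored, and knock-downs that hurt cell survival may mask genuine repressor factors.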 Unmarked entries are inactive. Reagents against one gene are numbered here.

| Target gene | reagent | mean z-score | z-score, replicate A | z-score, replicate B | z-score, replicate C |
| --- | --- | --- | --- | --- | --- |
| HOXA13 (GeneID 3209) | 1 | 1.03 | 0.81 | 1.23 | 1.05 |
| ERN2 (GeneID 10595) | 1 | 0.05 | 0.09 | -0.11 | 0.18 |
| ERN2 (GeneID 10595) | 2 | 1.1 | 0.95 | 1.34 | 1 |
| CEP57L1P1 (GeneID 221017) | 1 | -0.01 | -0.25 | 0.22 | -0.01 |
| SLC4A8 (GeneID 9498) | 1 | 0.96 | 1.08 | 0.91 | 0.89 |
| SLC4A8 (GeneID 9498) | 2 | 0.01 | -0.34 | 0.45 | -0.08 |
| MAGEB3 (GeneID 4114) | 1 | 0.38 | 0.12 | 0.81 | 0.19 |
| LCN1 (GeneID 3933) | 1 | -0.14 | -0.21 | -0.03 | -0.17 |
| MAGI3 (GeneID 260425) | 1 | 0.93 | 0.98 | 0.92 | 0.88 |
| LNX1 (GeneID 84708) | 1 | 0.42 | 0.46 | 0.18 | 0.61 |
| TDRD1 (GeneID 56165) | 1 | 0.59 | 0.6 | 0.53 | 0.65 |
| PLAAT5 (GeneID 117245) | 1 | -0.48 | -0.58 | -0.37 | -0.5 |
| DBN1 (GeneID 1627) | 1 | -0.02 | 0.06 | -0.16 | 0.03 |
| TBX15 (GeneID 6913) | 1 | -0.29 | -0.2 | -0.3 | -0.36 |
| GOLGA8G (GeneID 283768) | 1 | -0.18 | -0.29 | -0.27 | 0.02 |
| GOLGA8G (GeneID 283768) | 2 | -0.72 | -0.66 | -0.74 | -0.74 |
| ANKRD55 (GeneID 79722) | 1 | -0.16 | -0.44 | -0.28 | 0.23 |
| SLC25A34 (GeneID 284723) | 1 | 0.41 | 0.62 | 0.52 | 0.07 |
| PRRX2 (GeneID 51450) | 1 | -0.47 | -0.67 | -0.54 | -0.18 |
| FOXQ1 (GeneID 94234) | 1 | -1.19 | -0.9 | -1.48 | -1.2 |
| IMP3 (GeneID 55272) | 1 | -1.04 | -1.11 | -1.33 | -0.69 |
| LOC389372 (retired record) (GeneID 389372) | 1 | -0.11 | 0.07 | -0.32 | -0.08 |
| MIR1915HG (GeneID 399726) | 1 | -0.74 | -0.78 | -0.97 | -0.49 |
| LOC151760 (GeneID 151760) | 1 | 0.3 | 0.04 | 0.33 | 0.52 |
| LOC153959 (retired record) (GeneID 153959) | 1 | 0.18 | -0.03 | 0.4 | 0.16 |
| DYNLL2 (GeneID 140735) | 1 | 0.58 | 0.68 | 0.34 | 0.73 |
| RHOB (GeneID 388) | 1 | 1.12 | 0.8 | 1.33 | 1.21 |
| C1orf21 (GeneID 81563) | 1 | -0.07 | 0.19 | 0.23 | -0.63 |
| FKBP1A (GeneID 2280) | 1 | 0.79 | 1.17 | 0.84 | 0.36 |
| STK24 (GeneID 8428) | 1 | -1.3 | -1.49 | -1.34 | -1.06 |
| C2CD4A (GeneID 145741) | 1 | 0.77 | 0.34 | 0.2 | 1.77 |
| ITGAX (GeneID 3687) | 1 | -0.07 | -0.05 | -0.01 | -0.14 |
| CABP1 (GeneID 9478) | 1 | 0.6 | 0.8 | 0.5 | 0.51 |
| RPS8P10 (GeneID 388076) | 1 | -1.5 | -1.46 | -1.24 | -1.79 |
| LRP1 (GeneID 4035) | 1 | 2.6 (active) | 2.46 | 2.25 | 3.1 |
| PEDS1-UBE2V1 (GeneID 387522) | 1 | 0.65 | 0.98 | 0.14 | 0.82 |
| RPL8 (GeneID 6132) | 1 | 0.99 | 0.93 | 0.99 | 1.05 |
| KMT2A (GeneID 4297) | 1 | -1.05 | -0.72 | -0.98 | -1.45 |
| KMT2A (GeneID 4297) | 2 | -0.01 | 0.1 | -0.04 | -0.07 |

Part of the list above, showing only “z-score, replicate A”:
C1orf21 (GeneID 81563): 0.19
FKBP1A (GeneID 2280): 1.17
STK24 (GeneID 8428): -1.49
